A mixed list of measured activities; the numbers were collected in NIAID ChemDB.

Common to all: growth or infection tests; organism: HIV-1; read-out: EC50

ECn is the concentration giving n% inhibition of infection, replication or growth. Blank or dashed fields: not listed here. Rows are shuffled and stem from different studies.

compound | conditions | strain | mutations | cells | read by | value
Cc1ccc(-c2ccc(NC(=O)N3CCC4(CCO4)CC3)cc2)cc1 | pseudotyped | CH119 |  | TZM-bl | luminescence | >30 µM
CC(C)C1=C2[C@H]3CC[C@@H]4[C@@]5(C)CC[C@H](OC(=O)[C@H]6C[C@@H](C(=O)O)C6(C)C)C(C)(C)[C@@H]5CC[C@@]4(C)[C@]3(C)CC[C@@]2(CCNCC(C)(C)NC(=O)c2ccc(N)nc2)CC1=O |  | 92HT599 |  | MT-2 | p24 / ELISA | <1 µM
CNC(=O)c1c(O)c2ncc(Cc3ccc(F)cc3)c3c2n(c1=O)C[C@@H](Cn1cnc(C)c1)O3 |  | IIIB |  | MT-2 | ATP / luminescence | 0.0083 µM
O=C(NCCCC[C@H](NC(=O)c1ccc(O)c(O)c1)C(=O)O)c1ccc(O)c(O)c1 |  | LAI |  | MT-2 | cytopathic effect / neutral red | >62.5 µM
CC1CC(C)CN(S(=O)(=O)c2ccccc2[N+](=O)[O-])C1 |  | B-HXB2 |  | HeLa | GFP / fluorescence | 0.84 µM
O=C(NC1CC1)c1ccccc1SSc1ccccc1C(=O)NC1CC1 |  |  |  | CEM | XTT | 24 µM
Cc1ccc(-c2c(C(OCc3cc(C)on3)C(=O)O)c(C)nc3ccc(Br)cc23)cc1 |  |  |  | C8166 | luciferase / reporter gene | <20 µM
COC(=O)C(CCCNC(=O)c1ccc(O)c(O)c1)NC(=O)c1ccc(O)c(O)c1 |  | LAI |  | MT-2 | cytopathic effect / neutral red | >62.5 µM
Cc1ncc(-c2ccc(OCCC3=CCCCC3)cn2)c(N2CCC(C)(C)CC2)c1[C@H](OC(C)(C)C)C(=O)O |  | NL4-3 |  | MT-2 | luminescence | 0.0029 µM
CNC(=O)c1c(O)c2ncc(Cc3ccc(F)cc3)c3c2n(c1=O)C[C@](C)(C(=O)NCC(F)(F)F)O3 |  | IIIB |  | MT-2 | ATP / luminescence | 0.024 µM
C=C(C)[C@@H]1CC[C@]2(C(=O)NCCCCCCCCC(=O)N[C@H](CCC(N)=O)C(=O)OC)CC[C@]3(C)[C@H](CC[C@@H]4[C@@]5(C)CC[C@H](OC(=O)CC(C)(C)C(=O)O)C(C)(C)[C@@H]5CC[C@]43C)[C@@H]12 |  | NL4-3 | V370delta |  | absorbance | 0.324 µM
CNC(=O)[C@]1(C)Cn2c(=O)c(C(=O)NCCC#N)c(O)c3ncc(Cc4ccc(F)cc4)c(c32)O1 |  | IIIB |  | MT-2 | ATP / luminescence | 0.0314 µM
Cc1cccc(NC(=O)c2ccccc2SSc2ccccc2C(=O)Nc2cccc(C)c2)c1 |  |  |  | CEM | XTT | 20 µM
CN(C)c1ccc(Nc2c3ccc(NC(=O)CCN4CCCC4)cc3nc3cc(NC(=O)CCN4CCCC4)ccc23)cc1 |  | IIIB | Persistently infected cells | MT-4 | p24 / antigen | 5 µM
O=C(/C=C/c1cc(O)c(O)c(O)c1)NCC(NC(=O)/C=C/c1cc(O)c(O)c(O)c1)C(=O)O |  | LAI |  | MT-2 | cytopathic effect / neutral red | 1.6 µM
Cc1ncc(-c2cnc(OCCCF)c(F)c2)c(N2CCC(C)(C)CC2)c1[C@H](OC(C)(C)C)C(=O)O |  | NL4-3 |  | MT-2 | luminescence | 0.005 µM
CC(C)C1=C2[C@H]3CC[C@@H]4[C@@]5(C)CC[C@H](OC(=O)[C@H]6C[C@@H](C(=O)O)C6(C)C)C(C)(C)[C@@H]5CC[C@@]4(C)[C@]3(C)CC[C@@]2([C@@H](O)CNC(=O)C(C)(C)NC(=O)c2ccc(CN3CCOCC3)cc2)CC1=O |  | 92HT599 |  | MT-2 | p24 / ELISA | <1 µM
COC(=O)C(CCCNC(=O)/C=C/c1cc(O)c(O)c(O)c1)NC(=O)/C=C/c1cc(O)c(O)c(O)c1 |  | LAI |  | MT-2 | cytopathic effect / neutral red | 10 µM
Cc1nc2ccc(Cl)cc2c(-c2cccc(F)c2)c1C(OC(C)C)C(=O)O |  |  |  | C8166 | luciferase / reporter gene | <20 µM
CCCc1cc(=O)oc2c3c(c4c(c12)OC(C)(C)CC4)O[C@@H](C)[C@H](C)[C@@H]3O |  | NL4-3 1 (RT K101E) | RT-K101E | CEM + CEM-SS | XTT | 3.5 µM
O=C(O)c1cc(-n2cccc2)ccc1Cl |  | 92UG092 X4 CLADE A |  | PBMC/5.25M7 | luciferase / cell fusion | 9.94 µM
Cc1ncc(-c2ccc(O[C@H](C)C3CCC3)nc2)c(N2CCC(C)(C)CC2)c1[C@H](OC(C)(C)C)C(=O)O |  | NL4-3 |  | MT-2 | luminescence | 0.0119 µM
CC1(C)CC=C(c2cn(-c3nccc(C(=O)NC4CCC(N5CC6CCC(C5)O6)CC4)n3)c3ccc(F)c([C@H](OC(C)(C)C)C(=O)O)c23)CC1 |  | NL4-3 | T124S/T125A | MT-4 | luminescence | 0.0055 µM
Cc1ncc(-c2ccc(OCCc3ccn(C)n3)cn2)c(N2CCC(C)(C)CC2)c1[C@H](OC(C)(C)C)C(=O)O |  | NL4-3 |  | MT-2 | luminescence | 0.0096 µM
O=c1[nH]c(=S)ccn1[C@@H]1O[C@H](COP(=O)(O)O)[C@@H](O)[C@H]1O |  | IIIB |  | MAGI | β-galactosidase / visual reading | 12.2 µM
COC(=O)C(CCNC(=O)/C=C/c1ccc(O)c(O)c1)NC(=O)/C=C/c1ccc(O)c(O)c1 |  | LAI |  | MT-2 | cytopathic effect / neutral red | >62.5 µM
COCCNC(=O)c1c(O)c2ncc(Cc3ccc(F)cc3)c3c2n(c1=O)C[C@H](CNC(C)(C)CO)O3 |  | IIIB |  | MT-2 | ATP / luminescence | 0.015 µM
COC(=O)[C@H](CCCCNC(=O)/C=C/c1ccc(O)c(O)c1)NC(=O)/C=C/c1ccc(O)c(O)c1 |  | LAI |  | MT-2 | cytopathic effect / neutral red | 10 µM
N#CCCNC(=O)c1c(O)c2ncc(Cc3ccc(F)cc3)c3c2n(c1=O)CC(CO)(CO)O3 |  | IIIB |  | MT-2 | ATP / luminescence | 0.007 µM
CCCCCOC(C(=O)O)c1c(C)nc2ccc(Br)cc2c1-c1ccc(Cl)cc1 |  |  |  | C8166 | luciferase / reporter gene | <20 µM
CNC(=O)c1c(O)c2ncc(Cc3ccc(F)cc3)c3c2n(c1=O)CC(O)(CO)CO3 |  | IIIB |  | MT-2 | ATP / luminescence | 0.004 µM
CC(C)C1=C2[C@H]3CC[C@@H]4[C@@]5(C)CC[C@H](OC(=O)[C@H]6C[C@@H](C(=O)O)C6(C)C)C(C)(C)[C@@H]5CC[C@@]4(C)[C@]3(C)CC[C@@]2([C@@H](O)CNCc2ccc(CN3CCOCC3)cc2)CC1=O |  | 92HT599 |  | MT-2 | p24 / ELISA | <1 µM
Cc1ncc(-c2cnc(OCC3(C)CCC3)c(F)c2)c(N2CCC(C)(C)CC2)c1[C@H](OC(C)(C)C)C(=O)O |  | NL4-3 |  | MT-2 | luminescence | 0.0085 µM
C[C@H]1[C@H](O)[C@@H](C)/C=C/C=C/C=C/C=C/C=C/C=C/C=C/[C@H](O[C@@H]2O[C@H](C)[C@@H](O)[C@H](N)[C@@H]2O)C[C@@H]2O[C@](O)(C[C@@H](O)C[C@@H](O)CC[C@H](O)[C@@H](O)C[C@@H](O)CC(=O)O[C@H]1C)C[C@H](O)[C@H]2C(=O)O |  | 93IN101 CLADE C R5 (NSI) |  | PBMC | p24 / RT activity | 2.8 µM
CNC(=O)[C@H]1Cn2c(=O)c(C(=O)NCCC#N)c(O)c3ncc(Cc4ccc(F)cc4)c(c32)O1 |  | IIIB |  | MT-2 | ATP / luminescence | 0.041 µM
CC(C)C1=C2[C@H]3CC[C@@H]4[C@@]5(C)CC[C@H](OC(=O)[C@H]6C[C@@H](C(=O)O)C6(C)C)C(C)(C)[C@@H]5CC[C@@]4(C)[C@]3(C)CC[C@@]2(CCNCC(C)(C)NC(=O)c2ncccn2)CC1=O |  | 92HT599 |  | MT-2 | p24 / ELISA | <1 µM
O=C(/C=C/c1ccc(O)c(O)c1)NCCC(NC(=O)/C=C/c1ccc(O)c(O)c1)C(=O)O |  | LAI |  | MT-2 | cytopathic effect / neutral red | 67.2 µM
Cc1ncc(-c2ccc(OCC3CCC3)cn2)c(N2CCC(C)(C)CC2)c1[C@H](OC(C)(C)C)C(=O)O |  | NL4-3 |  | MT-2 | luminescence | 0.0011 µM
CC(C)=CCOc1cc(NC(=S)c2ccsc2C)ccc1Cl |  | NL4-3 | RT-L100I | CEM + CEM-SS | p24 | 0.2 µM
N#CC1=CC2Nc3ccccc3C2N(c2ccc([N+](=O)[O-])cc2)C1=O |  | B-HXB2 |  | MT-4 | GFP / fluorescence | 0.25 µM
COC(=O)C(CCNC(=O)/C=C/c1cc(OC)c(OC)c(OC)c1)NC(=O)/C=C/c1cc(OC)c(OC)c(OC)c1 |  | LAI |  | MT-2 | cytopathic effect / neutral red | >62.5 µM
Cc1ccc(-c2c(C(OC(C)C)C(=O)O)c(C)nc3ccc(Cl)cc23)cn1 |  |  |  | C8166 | luciferase / reporter gene | <20 µM
Cc1nc2ccccc2c(-c2cc(F)c3c(c2C)CCCO3)c1[C@H](OC(C)(C)C)C(=O)O |  | NL4-3 | L102F | MT-4 | luminescence | 3.05 µM
Cc1cnn(CCOc2ccc(-c3cnc(C)c([C@H](OC(C)(C)C)C(=O)O)c3N3CCC(C)(C)CC3)nc2)c1 |  | NL4-3 |  | MT-2 | luminescence | 0.0056 µM
Cc1nc2ccccc2c(-c2ccccc2O)c1C(OC(C)C)C(=O)O |  |  |  | C8166 | luciferase / reporter gene | <20 µM
CNC(=O)[C@@]1(C)Cn2c(=O)c(C(=O)NC3CC3)c(O)c3ncc(Cc4ccc(F)cc4)c(c32)O1 |  | IIIB |  | MT-2 | ATP / luminescence | 0.016 µM
[2H]C([2H])(CNCC[C@@]12CC[C@]3(C)[C@H](CC[C@@H]4[C@@]5(C)CC[C@H](OC(=O)[C@H]6C[C@@H](C(=O)O)C6(C)C)C(C)(C)[C@@H]5CC[C@]43C)C1=C(C(C)C)C(=O)C2)NC(=O)c1ccc(Cl)cc1 |  | 92HT599 |  | MT-2 | p24 / ELISA | <1 µM
CCOC(=O)CCNC(=O)c1ccccc1SSc1ccccc1C(=O)NCCC(=O)OCC |  |  |  | CEM | XTT | >40 µM
CCCC(C(=O)O)c1c(-c2ccc(Cl)cc2)c2cc(Br)ccc2oc1=O |  |  |  | C8166 | luciferase / reporter gene | <20 µM
NS(=O)(=O)c1ccc(NC(=O)c2ccccc2[N+](=O)[O-])cc1 |  |  |  | CEM | XTT | >100 µM
COc1cc(Cl)ccc1CNC(=O)C[C@@]12CC[C@]3(C)[C@H](CC[C@@H]4[C@@]5(C)CC[C@H](OC(=O)[C@H]6C[C@@H](C(=O)O)C6(C)C)C(C)(C)[C@@H]5CC[C@]43C)C1=C(C(C)C)C(=O)C2 |  | 92HT599 |  | MT-2 | p24 / ELISA | <1 µM
CC(C)CN(C[C@@H](O)[C@H](Cc1cc(F)cc(F)c1)NC(=O)O[C@H]1C2CO[C@H]3OCC1C3C2)S(=O)(=O)c1ccc2nc(NC3CC3)sc2c1 |  | LAI |  | MT-2 | p24 / luminescence | 0.000017 µM
Cc1nc2ccc(Br)cc2c(-c2ccc(Cl)cc2)c1C(O[C@@H](C)C#N)C(=O)O |  |  |  | C8166 | luciferase / reporter gene | <20 µM

A second listing of 5 rows from above:

Cc1cccc(NC(=O)c2ccccc2SSc2ccccc2C(=O)Nc2cccc(C)c2)c1 ; cells: CEM ; read by: XTT ; value: 20 µM
COC(=O)[C@H](CCCCNC(=O)/C=C/c1ccc(O)c(O)c1)NC(=O)/C=C/c1ccc(O)c(O)c1 ; strain: LAI ; cells: MT-2 ; read by: cytopathic effect / neutral red ; value: 10 µM
CC(C)=CCOc1cc(NC(=S)c2ccsc2C)ccc1Cl ; strain: NL4-3 ; mutations: RT-L100I ; cells: CEM + CEM-SS ; read by: p24 ; value: 0.2 µM
Cc1ncc(-c2ccc(OCC3CCC3)cn2)c(N2CCC(C)(C)CC2)c1[C@H](OC(C)(C)C)C(=O)O ; strain: NL4-3 ; cells: MT-2 ; read by: luminescence ; value: 0.0011 µM
O=C(/C=C/c1ccc(O)c(O)c1)NCCC(NC(=O)/C=C/c1ccc(O)c(O)c1)C(=O)O ; strain: LAI ; cells: MT-2 ; read by: cytopathic effect / neutral red ; value: 67.2 µM